Data reported in US8906945B2 (priority 2009, dated 2014).

What was measured:
[1] = tested on: secretion of ExoS from P. aeruginosa PAKΔTY; assay: microbe, parasite or virus in culture; settings: Pseudomonas aeruginosa, read-out: IC50 of inhibition of native ExoS secretion
[2] = tested on: secretion of ExoS from P. aeruginosa PAKΔTY; settings: 50 μM during T3SS induction

CC(Oc1ccc(Cl)cc1Cl)C(=O)NCc1ccc2c(c1)OCO2 (racemic) [Compound 1, N-(benzo[d][1,3]dioxol-5-ylmethyl)-2-(2,4-dichlorophenoxy)propanamide]
IC50 [1]: ~12.5 µM | secretion of ExoS (in words) [2]: completely inhibited

CCN1CCOC(CC(=O)Nc2ccc3c(c2)OCCO3)C1=O (centres unmarked) [Compound 3, N-(2,3-dihydrobenzo[b][1,4]dioxin-6-yl)-2-(4-ethyl-3-oxomorpholin-2-yl)acetamide]
secretion of ExoS (in words) [2]: completely inhibited

CCN1CCOC(CC(=O)Nc2ccc(F)cc2)C1=O (centres unmarked) [Compound 4, 2-(4-ethyl-3-oxomorpholin-2-yl)-N-(4-fluorophenyl)acetamide]
secretion of ExoS (in words) [2]: completely inhibited

Cc1ccc(N2C(=O)C3C(C2=O)C2(C)C=CC3(C)O2)c(C)c1 (centres unmarked) [Compound 8, 2-(2,4-dimethylphenyl)-4,7-dimethyl-3a,4,7,7a-tetrahydro-1H-4,7-epoxyisoindole-1,3(2H)-dione]
secretion of ExoS (in words) [2]: significantly, but not completely
